{"source": "PubChem BioAssay AID1053131", "about": "(The Scripps Research Institute Molecular Screening Center, 2014)", "note": "Only a part is listed here, and it is no random draw. The source made the active and inactive calls. Rule as the data show it: active = activation above about 8.9%; inactive = the rest."}
{"system": "HIV-1 integrase (multimerization)", "assay": "stimulation of HIV-1 integrase oligomerization – biochemical, TR-FRET, counter-screen for LEDGF/p75 integration inhibitor project (AID 1053131)", "settings": "TR-FRET HIV-1 integrase multimerization, at 7.7 µM, hits give high values"}
{"compound": "CCOC(=O)c1ccc(NP(C)(=O)Oc2ccc(Cl)cc2)cc1", "note": "(stereo unspecified)", "activation": "inactive: -0.23%"}
